# According to publication PMC4499131:
# Chains of the proteins cited; added tags and fusions are not shown. Lines headed by an entry give the natural chain unless they say otherwise; changes in a name come on top.
# UniProt P03132: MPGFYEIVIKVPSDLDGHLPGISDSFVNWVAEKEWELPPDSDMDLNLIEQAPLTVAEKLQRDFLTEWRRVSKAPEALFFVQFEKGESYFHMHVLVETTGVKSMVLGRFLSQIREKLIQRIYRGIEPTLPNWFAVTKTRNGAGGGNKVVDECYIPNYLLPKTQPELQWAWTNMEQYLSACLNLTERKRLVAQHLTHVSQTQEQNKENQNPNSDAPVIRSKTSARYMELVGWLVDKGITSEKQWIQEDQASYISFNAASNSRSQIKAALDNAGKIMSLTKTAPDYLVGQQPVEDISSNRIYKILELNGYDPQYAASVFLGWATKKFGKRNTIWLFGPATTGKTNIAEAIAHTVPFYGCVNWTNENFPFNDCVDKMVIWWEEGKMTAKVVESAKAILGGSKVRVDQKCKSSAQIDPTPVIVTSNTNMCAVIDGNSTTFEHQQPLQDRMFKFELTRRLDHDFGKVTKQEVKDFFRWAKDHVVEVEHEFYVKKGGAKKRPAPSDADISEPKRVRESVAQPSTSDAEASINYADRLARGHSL
# Construct, isoform or probe ends are uncertain for at least one entry.
# Target: MBP-Rep68 (Adeno-associated virus 2) (UniProt P03132)
# Assay: SPR
# Settings: 0.83 mM ATP, 10 mM Mg2+; recombinant protein; protein details: N-terminal MBP; label: 3'-biotin on strand 1
sequence,measurement,value
GATCAGTGATGGAGTTGGCCACTCCCTCTCTGCGCGCTCGCTCGCTCACTGAGGCC / CTAGGGCCTCAGTGAGCGAGCGAGCGCGCAGAGAGGGAGTGGCCAACTCCATCACT [AAV S1 dsDNA (deltaITR AAVS1 Rep binding site)],binding result,binds
